Experimental data: PubChem BioAssay AID624099 (ICCB-Longwood, 2012)
Screen: 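Knock-downs relieving repression by E2 of an HPV18 LCR luciferase reporter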 (primary screen). Cells: human C33A cervical carcinoma cells (HPV-negative) stably expressing BPV1 E2 and an HPV18 LCR luciferase reporter. Reagent: siRNA pool against human genes, 40 nM. Duration: 72 h. Measured: 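Per-well luciferase luminescence, z-scored on each plate against the plate mean and SD with control wells left out, then averaged across three replicate plates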. Direction: mean z-score and z-score: higher = stronger reporter signal, weaker E2 silencing. Call rule: 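Mean z ≥ 2 together with z ≥ 2 in two or more of the three replicates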.
In all, the deposit lists about 21,000 reagents; shown is an unselected part. 497 of all reagents (2.4%) count as active. 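Higher z means weaker E2 silencing; only reporter increases were scored, and knock-downs that hurt cell survival may mask genuine repressor factors.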 The numbers tell different reagents against one gene apart. No sequences are given here.

For HOXB3, how do the results read?
mean z-score: 0.17; z-score, replicate A: 0.37; z-score, replicate B: 0.01; z-score, replicate C: 0.14; Outcome: inactive

Which result is listed for TINCR?
mean z-score: 1.11; z-score, replicate A: 0.8; z-score, replicate B: 1.23; z-score, replicate C: 1.31; Outcome: inactive

With LINC01936, how do the results read?
mean z-score: -0.53; z-score, replicate A: -0.6; z-score, replicate B: -0.5; z-score, replicate C: -0.48; Outcome: inactive

What did the screen give for FSCN3?
mean z-score: 0.8; z-score, replicate A: 1.02; z-score, replicate B: 0.6; z-score, replicate C: 0.78; Outcome: inactive

What did the screen give for YWHAZ?
mean z-score: 0.55; z-score, replicate A: 0.69; z-score, replicate B: 0.64; z-score, replicate C: 0.31; Outcome: inactive

With DUSP1, what does the deposit list?
mean z-score: -0.19; z-score, replicate A: -0.22; z-score, replicate B: -0.12; z-score, replicate C: -0.22; Outcome: inactive

How did the screen score TMEM266?
mean z-score: -0.08; z-score, replicate A: -0.14; z-score, replicate B: 0.2; z-score, replicate C: -0.3; Outcome: inactive

With SAP30L, what was measured?
mean z-score: 0.12; z-score, replicate A: 0.26; z-score, replicate B: 0.08; z-score, replicate C: 0.02; Outcome: inactive

Which result is listed for INPP5D?
mean z-score: -0.67; z-score, replicate A: -0.09; z-score, replicate B: -1.04; z-score, replicate C: -0.87; Outcome: inactive

With POLD4, how do the results read?
mean z-score: -0.62; z-score, replicate A: -0.76; z-score, replicate B: -0.96; z-score, replicate C: -0.14; Outcome: inactive

With FAM86GP, what does the deposit list?
mean z-score: 1.21; z-score, replicate A: 1.56; z-score, replicate B: 0.64; z-score, replicate C: 1.43; Outcome: inactive

What did the screen give for IL26?
mean z-score: 0.12; z-score, replicate A: 0.19; z-score, replicate B: -0.02; z-score, replicate C: 0.2; Outcome: inactive

What is on record for ASCL3?
mean z-score: 0.19; z-score, replicate A: -0.04; z-score, replicate B: 0.09; z-score, replicate C: 0.51; Outcome: inactive

For CSMD3, how do the results read?
mean z-score: -0.07; z-score, replicate A: -0.11; z-score, replicate B: -0.37; z-score, replicate C: 0.29; Outcome: inactive

Laid out differently: entries from further up.
Gene	reagent no.	mean z-score	z-score, replicate A	z-score, replicate B	z-score, replicate C	Outcome
HOXB3	1	0.17	0.37	0.01	0.14	inactive
TINCR	1	1.11	0.8	1.23	1.31	inactive
LINC01936	1	-0.53	-0.6	-0.5	-0.48	inactive

The listing continues:
With SPG7, what does the deposit list?
mean z-score: 0.2; z-score, replicate A: 0.31; z-score, replicate B: 0; z-score, replicate C: 0.29; Outcome: inactive

What did the screen give for OR5AU1?
mean z-score: -0.86; z-score, replicate A: -0.83; z-score, replicate B: -1.03; z-score, replicate C: -0.72; Outcome: inactive

How did the screen score POLR2G?
mean z-score: -2.85; z-score, replicate A: -2.83; z-score, replicate B: -2.97; z-score, replicate C: -2.76; Outcome: inactive

With NFATC3, what was measured?
mean z-score: -0.75; z-score, replicate A: -0.73; z-score, replicate B: -0.86; z-score, replicate C: -0.66; Outcome: inactive

How did the screen score RPP38?
mean z-score: -0.99; z-score, replicate A: -1.15; z-score, replicate B: -1.07; z-score, replicate C: -0.74; Outcome: inactive

For RBMS1 #1, what does the deposit list?
mean z-score: 0.33; z-score, replicate A: 0.23; z-score, replicate B: 0.47; z-score, replicate C: 0.28; Outcome: inactive

How did the screen score RBMS1 #2?
mean z-score: 1.29; z-score, replicate A: 1.03; z-score, replicate B: 1.64; z-score, replicate C: 1.19; Outcome: inactive

How did the screen score TNNT2?
mean z-score: 0.83; z-score, replicate A: 0.79; z-score, replicate B: 1.08; z-score, replicate C: 0.62; Outcome: inactive

For GNB2, what does the deposit list?
mean z-score: 0.39; z-score, replicate A: 0.07; z-score, replicate B: 0.72; z-score, replicate C: 0.4; Outcome: inactive

How did the screen score TRH?
mean z-score: -0.09; z-score, replicate A: -0.03; z-score, replicate B: -0.14; z-score, replicate C: -0.1; Outcome: inactive

What is on record for SNTN?
mean z-score: 0.34; z-score, replicate A: 0.56; z-score, replicate B: 0.45; z-score, replicate C: 0.02; Outcome: inactive

With ZNF429, what does the deposit list?
mean z-score: -0.14; z-score, replicate A: -0.01; z-score, replicate B: -0.26; z-score, replicate C: -0.15; Outcome: inactive

With LMX1B, what was measured?
mean z-score: -0.46; z-score, replicate A: -0.52; z-score, replicate B: -0.53; z-score, replicate C: -0.32; Outcome: inactive
